A mixed list of measured activities; the numbers were collected in NIAID ChemDB.

Shared fields: tests on isolated targets

Blank or dashed fields: not listed here. Rows are shuffled and stem from different studies. ICn is the concentration giving n% inhibition. Inhibition is in % at the dose shown (toxicity tests: loss of growth or viability).

compound,measure,mutations,dose,protein,read by,value
N#CCCn1c2ccc(O)cc2c2c3c(c4c5cc(O)ccc5[nH]c4c21)C(=O)NC3,IC50,,,Myosin light-chain kinase,,0.43 µM
NCCCC[C@@H]1NC(=O)[C@H](CCCN=C(N)N)NC(=O)[C@@H](Cc2ccc(O)cc2)NC(=O)CNC(=O)[C@H](Cc2ccc3ccccc3c2)NC1=O,IC50,,,CXCR4,radiometric,>1 µM
CN1CC[C@H](c2c(O)cc(O)c3c(=O)cc(-c4ccccc4Cl)oc23)[C@H](O)C1,IC50,,,Cyclin-dependent kinase 7,radiometric,0.2 µM
CN(C[C@@H](CCc1ccc(-c2ccccc2)cn1)c1cccc(Cl)c1)S(=O)(=O)c1ccccc1,IC50,,,CCR5,radioligand binding / binding,30 µM
CC(C)CN(C[C@@H](O)[C@H](Cc1ccccc1)NC(=O)[C@H](CC(N)=O)NC(=O)c1ccc2ccccc2n1)C(=O)NC(C)(C)C,inhibition,,10 µM,Cathepsin D,,4%
O=c1[nH]c(=O)n([C@H]2C[C@H](F)[C@@H](CO)O2)cc1I,Ki,,,Thymidine kinase,thymidine uptake / kinase activity,5.2 µM
CCO/N=C(\c1ccc(Br)cc1)C1CCN(C2(C)CCN(C(=O)c3c(C)cc[n+]([O-])c3C)CC2)CC1,IC50,,,CCR3,,>20 µM
CN1C(=O)c2ccccc2C12CCN(CC[C@H](CN(C)S(=O)(=O)c1ccccc1)c1cccc(Cl)c1)CC2,IC50,,,CCR5,radioligand binding / binding,0.045 µM
CSc1sc(C(N)=O)c2c1-c1nocc1CC2,IC50,,,Protein kinase A,,>30 µM
C[C@@H]1CN(C(=O)c2ccccc2)CCN1C(=O)C(=O)c1c[nH]c2nccc(OCCOCCOCCOCCOCCOCCn3cc(COCCOCCOCCOCCNc4ccc([N+](=O)[O-])cc4[N+](=O)[O-])nn3)c12,IC50,,,gp120,ELISA,8.7 µM
CCCCC1C(=O)Nc2cc(C(=O)N3CCN(C(C)(C)OC(C)=O)CC3)ccc2N1CC,IC50,,,DC-SIGN,fluorescence,270 µM
NC[C@H]1O[C@H](O[C@H]2[C@H](O)[C@@H](O)[C@H](N)C[C@@H]2N)[C@H](N)[C@@H](O)[C@@H]1O,IC50,,,CXCR4,flow cytometry,>10 µM
O=C1N(Cc2ccc(CO)cc2)[C@H](Cc2ccccc2)[C@H](O)[C@@H](O)[C@@H](Cc2ccccc2)N1Cc1ccc(CO)cc1,inhibition,,80 µM,Cathepsin G,,0%
CN(C)CCCn1c2ccc(O)cc2c2c3c(c4c5cc(O)ccc5[nH]c4c21)C(=O)NC3=O,IC50,,,Protein kinase C,,0.014 µM
O=C(C1CCCCC1)N1C[C@H](CN2CCC(c3ccccc3)CC2)[C@@H](c2ccccc2)C1,IC50,CCR5-Y108A,,CCR5,radiometric,0.97 µM
NCC[C@@H]1NC(=O)[C@H](CCCN=C(N)N)NC(=O)[C@@H](Cc2ccc(O)cc2)NC(=O)CNC(=O)[C@H](Cc2ccc3ccccc3c2)NC1=O,IC50,,,CXCR4,radiometric,0.44 µM
CN(C[C@@H](CCN1CCC(c2ccccc2)(c2ccccc2)CC1)c1cccc(Cl)c1)S(=O)(=O)c1ccccc1,IC50,,,CCR5,radioligand binding / binding,10 µM
NC(N)=NCCC[C@H](N)C(=O)NC[C@@H]1O[C@H](O[C@H]2[C@@H](O)[C@H](O[C@@H]3[C@@H](O)[C@H](N)C[C@H](N)[C@H]3O[C@H]3O[C@H](CO)[C@@H](O)[C@H](O)[C@H]3N)O[C@@H]2CO)[C@H](N)[C@@H](O)[C@@H]1O,inhibition,,10 µM,CXCR4,flow cytometry,16%
OC[C@H]1O[C@@H](n2cnc3cc(Cl)c(Cl)cc32)[C@H](O)[C@@H]1O,IC50,,,Protein kinase C,,>30 µM
NC(N)=NCCC[C@@H]1NC(=O)[C@H](CCCN=C(N)N)NC(=O)[C@@H](Cc2ccc(O)cc2)NC(=O)CNC(=O)[C@@H](Cc2nc3ccccc3s2)NC1=O,IC50,,,CXCR4,radiometric,0.26 µM
CCCCCCCCCCCCCCCCO[C@H](CCl)COP(=O)(O)OCC[N+](C)(C)C,inhibition,,19 µM,Protein kinase C,,78%
CN(CCNC(=O)NN)CC1OC(n2cnc3c(N)ncnc32)C(O)C1O,IC50,,,S-adenosylmethionine decarboxylase,,0.6 µM
NC(N)=NCCC[C@@H]1NC(=O)[C@@H](Cc2ccc(O)cc2)NC(=O)CNC(=O)[C@H](Cc2ccc3ccccc3c2)NC(=O)[C@H](CCC(=O)O)NC1=O,IC50,,,CXCR4,radiometric,>1 µM
CNC(C)[C@H]1O[C@H](O[C@@H]2[C@@H](O)[C@H](O[C@@H]3OC[C@@](C)(O)[C@@H](NC)[C@@H]3O)[C@@H](NC(=O)[C@@H](N)CCCN=C(N)N)C[C@H]2NC(=O)[C@@H](N)CCCN=C(N)N)[C@H](NC(=O)[C@@H](N)CCCN=C(N)N)[C@@H](O)[C@@H]1O,IC50,,,CXCR4,flow cytometry,<10 µM
Cn1c2ccccc2c2c3c(c4c5ccccc5n(CC(F)F)c4c21)CNC3=O,IC50,,,Myosin light-chain kinase,,0.44 µM
NC(N)=NCCC[C@@H]1NC(=O)[C@H](CCCN=C(N)N)NC(=O)[C@@H](Cc2ccc(O)cc2)NC(=O)CNC(=O)[C@H](Cc2c[nH]c3ccccc23)NC1=O,IC50,,,CXCR4,radiometric,0.013 µM
Cc1cc(SC2=C(O)C[C@@](CCc3ccc(O)cc3)(C(C)C)OC2=O)c(C(C)(C)C)cc1CO,inhibition,,100 µM,Cytochrome P450 3A4,,36%
CN(C[C@@H](CCN1CCC2(CC1)Cc1ccccc1C2=O)c1cccc(Cl)c1)S(=O)(=O)c1ccccc1,inhibition,,1 µM,CCR5,radioligand binding / binding,30%
O=c1[nH]c(=O)n([C@H]2C[C@H](F)[C@@H](CO)O2)cc1Cl,Ki,,,Thymidine kinase,thymidine uptake / kinase activity,6.1 µM
CC(C)(C)NC(=O)[C@@H]1CN(Cc2cnc3occc3c2)CCN1C[C@@H](O)C[C@@H](Cc1ccccc1)C(=O)N[C@H]1c2ccccc2C[C@H]1O,IC50,,,Cytochrome P450,,~10 µM
CN(C[C@@H](CCN1CCC(c2ccccc2)CC1)c1cccc(Cl)c1)S(=O)(=O)c1ccccc1,IC50,,,CCR5,radioligand binding / binding,0.04 µM
[N-]=[N+]=N[C@H]1C[C@H](n2cc(I)c(=O)[nH]c2=O)O[C@@H]1COP(=O)(O)OP(=O)(O)OP(=O)(O)O,Ki,,,Thymidylate kinase,nucleotide incorporation,55.3 µM
NC(N)=NCCC[C@H](N)C(=O)NC[C@H]1O[C@H](O[C@H]2[C@H](O)[C@@H](O)[C@H](NC(=O)[C@@H](N)CCCN=C(N)N)C[C@@H]2NC(=O)[C@@H](N)CCCN=C(N)N)[C@H](NC(=O)[C@@H](N)CCCN=C(N)N)[C@@H](O)[C@@H]1O,IC50,,,CXCR4,flow cytometry,<10 µM
NC(N)=NCCC[C@@H]1NC(=O)CNC(=O)[C@H](Cc2ccc3ccccc3c2)NC(=O)[C@H](CCCN=C(N)N)NC(=O)[C@H](Cc2ccc(F)cc2)NC1=O,IC50,,,CXCR4,radiometric,0.62 µM
O=C(O)c1cc(O)cc(O)c1N=Nc1ccc(/C=C/c2ccc(N=Nc3c(O)cc(O)cc3C(=O)O)cc2S(=O)(=O)O)c(S(=O)(=O)O)c1,inhibition,,0.8 µM,gp120,,100%
CN1Cc2c(c3c4ccccc4n(C)c3c3c2c2ccccc2n3CCC#N)C1=O,IC50,,,cGMP-dependent kinase,,>30 µM
CN(CC(C)(CCN1CCC(N(CCO)C(=O)OCc2ccc([N+](=O)[O-])cc2)CC1)c1ccsc1)S(=O)(=O)c1ccccc1,IC50,CCR5-Y251A,,CCR5,radiometric,0.051 µM
NC(N)=NCCC[C@@H]1NC(=O)CNC(=O)[C@H](Cc2ccc3ccccc3c2)NC(=O)[C@H](CCCN=C(N)N)NC(=O)[C@@H](Cc2ccc(F)cc2)NC1=O,IC50,,,CXCR4,radiometric,0.035 µM
CN(CCCNN)C[C@H]1O[C@@H](n2cnc3c(N)ncnc32)[C@H](O)[C@@H]1O,IC50,,,S-adenosylmethionine decarboxylase,,0.005 µM
Clc1c(Cl)c(Cl)c2n[nH]nc2c1Cl,IC50,,,Protein kinase C,,>30 µM
NC[C@@H]1O[C@H](O[C@H]2[C@@H](O)[C@H](O[C@@H]3[C@@H](O)[C@H](N)C[C@H](N)[C@H]3O[C@H]3O[C@H](CN)[C@@H](O)[C@H](O)[C@H]3N)O[C@@H]2CO)[C@H](N)[C@@H](O)[C@@H]1O,inhibition,,20 µM,CXCR4,flow cytometry,0%
CN1CC[C@H](c2c(O)cc(O)c3c(=O)cc(-c4ccccc4F)oc23)[C@H](O)C1,IC50,,,Cyclin-dependent kinase 1,kinase activity,0.123 µM
C[C@@H](O)[C@H](NC(=O)OCc1ccccc1)C(=O)N[C@@H](CO)C(=O)NN,IC50,,,S-adenosylmethionine decarboxylase,,75 µM
O=C(O[C@@H]1Cc2c(O)cc(O)cc2O[C@@H]1c1cc(O)c(O)c(O)c1)c1cc(O)c(O)c(O)c1,inhibition,,50 µM,CD4,ELISA,67.1%
OC[C@H]1O[C@@H](n2cnc3c(Cl)c(Cl)c(Cl)cc32)[C@H](O)[C@@H]1O,IC50,,,Protein kinase A,,>30 µM
OCC12C(c3ccccc3)C3(CO)C4N(Cc5ccccc5)C1C1(CO)C(c5ccccc5)C4(CO)C3N(Cc3ccccc3)C21,IC50,,,P-glycoprotein,fluorescence,74.37 µM

A second listing of 5 rows from above:

compound,measure,mutations,dose,protein,read by,value
CC(C)(C)NC(=O)[C@@H]1CN(Cc2cnc3occc3c2)CCN1C[C@@H](O)C[C@@H](Cc1ccccc1)C(=O)N[C@H]1c2ccccc2C[C@H]1O,IC50,,,Cytochrome P450,,~10 µM
CN1CC[C@H](c2c(O)cc(O)c3c(=O)cc(-c4ccccc4Cl)oc23)[C@H](O)C1,IC50,,,Cyclin-dependent kinase 7,radiometric,0.2 µM
O=c1[nH]c(=O)n([C@H]2C[C@H](F)[C@@H](CO)O2)cc1Cl,Ki,,,Thymidine kinase,thymidine uptake / kinase activity,6.1 µM
NC[C@H]1O[C@H](O[C@H]2[C@H](O)[C@@H](O)[C@H](N)C[C@@H]2N)[C@H](N)[C@@H](O)[C@@H]1O,IC50,,,CXCR4,flow cytometry,>10 µM
CN1CC[C@H](c2c(O)cc(O)c3c(=O)cc(-c4ccccc4F)oc23)[C@H](O)C1,IC50,,,Cyclin-dependent kinase 1,kinase activity,0.123 µM